# Measured values: PubChem BioAssay AID504834 (National Center for Advancing Translational Sciences (NCATS), 2011)
# The list shows a part of the results, in another mix than the full data. Results filed as inconclusive are left out. Entries that show only a call come without a potency. Activity calls are given as the source filed them. The call rests on the fitted dose curve; in most records, active means well fitted inhibition curve with a large enough effect; inconclusive means small, poorly fitted or top-dose-only effect, or another doubt; inactive means no such curve, though single readings can be large or run the other way.
# Assay: Primary qHTS for delayed death inhibitors of the malarial parasite plastid, 96 hour incubation
# Details: P. falciparum luciferase reporter growth; series mostly up to 28.7 µM
# Potency means the concentration at half of the fitted maximal effect.
Structure (SMILES),Potency,"activity change, negative = inhibition"
C(Cc1nn[nH]n1)Cc1nn[nH]n1,inactive,
O=[N+]([O-])c1ncn(CCn2cnc([N+](=O)[O-])n2)n1,inactive,
O=[N+]([O-])c1ccc(O)c(/C=N/Nc2ccc([N+](=O)[O-])cc2[N+](=O)[O-])c1,inactive,
O=[As](O)(c1ccccc1)c1ccc(O)cc1,active: 5.86 µM,
O=P(Nc1nc2ccccc2s1)(c1ccccc1)c1ccccc1,inactive,
C[C@H]1OP(=O)(Oc2ccccc2)[C@H](O)[C@H](O)[C@H]1N=[N+]=[N-] (some centres not stated),inactive,
CN(C(=O)Cc1ccccc1)[C@H]1CC[C@@]2(CCCO2)C[C@@H]1N1CCCC1,inactive,
O=P(Nc1ccccn1)(c1ccc(Br)cc1)c1ccc(Br)cc1,inactive,
c1nnnn1CCn1cnnn1,inactive,
CC(C)C(=O)NC(Sc1ccccc1)C(Cl)(Cl)Cl (configuration not stated),inactive,
CC(=O)Nc1ccc([As](=O)(O)O)c(O)c1,active: 1.31 µM,
CC(=O)Nc1ccc(Oc2c([N+](=O)[O-])cc([N+](=O)[O-])cc2[N+](=O)[O-])cc1,inactive,
CC(=O)c1ccc(N2CC2c2ccncc2)cc1 (configuration not stated),inactive,
C=C(CO)CC1CC(O)[C@]2(C)OC3CC4OC5C[C@]6(C)O[C@]7(C)CCC8OC9C[C@]%10(C)OC%11C(C)=CC(=O)OC%11CC%10OC9C[C@@H](C)C8OC7CC6O[C@]5(C)C/C=C\C4OC3CC2O1 (some centres not stated),active: 5.86 µM,
C[C@H]1OP(=O)(Oc2ccccc2)C[C@@H]2O[C@@H]21 (some centres not stated),inactive,
CC(C)(C)C(=O)NC(Sc1ccccc1)C(Cl)(Cl)Cl (configuration not stated),inactive,
CCOc1ccc(C2=NCC(CBr)S2)cc1 (configuration not stated),,inactive: 73.7% [at 1.15 µM]
Cc1ccccc1OP(=O)(Nc1ccccn1)Oc1ccccc1C,inactive,
O=c1c2cc([N+](=O)[O-])ccc2[nH]c2c([N+](=O)[O-])cc([N+](=O)[O-])cc12,inactive,
O=C(C[N+]12CCC(CC1)C(OC(=O)c1ccccc1)C2)c1ccc([N+](=O)[O-])cc1 (configuration not stated),active: 11.7 µM,
COC(=O)c1cc2c(s1)N=C(c1ccccc1)N(C)P2(=O)N1CCOCC1 (configuration not stated),inactive,
O=C(OC1CN2CCC1CC2)c1ccccc1 (configuration not stated),inactive,
CCC(=O)N1C2C3N(C(=O)CC)C1C1N(C(=O)CC)C(C(N1C(=O)CC)N3C(=O)CC)N2C(=O)CC,inactive,

Structure (SMILES),Potency,"activity change, negative = inhibition"
O=C(NC1CCS(=O)(=O)C1)NP(=S)(Oc1ccccc1)Oc1ccccc1 (configuration not stated),inactive,
CCNC(=S)/N=C(\N)N[N+](=O)[O-],inactive,
c1ccc(-c2nn[nH]n2)c(-c2nn[nH]n2)c1,inactive,
CCOC(=O)NC(Sc1ccccc1)C(Cl)(Cl)Cl (configuration not stated),inactive,
Cc1ccc(NP(=O)(Oc2cccc(C)c2)Oc2cccc(C)c2)nc1,inactive,
Nc1cccc2ccc([As](=O)(O)O)cc12,active: 2.62 µM,
Cc1cc(SC(NC(=O)c2ccc(F)cc2)C(Cl)(Cl)Cl)ncn1 (configuration not stated),inactive,
CCOP(=O)(Nc1ccccc1)OCC,inactive,
Cc1ccc(NP(=O)(Oc2ccccc2F)Oc2ccccc2F)nc1,inactive,
C=C(C=O)C[C@@H]1C[C@H](O)C2OC3C[C@]4(C)OC5/C=C\CC6OC7C(CC=CCC6OC5CCCC4OC3CC2O1)OC1CC2OC3CC(=O)OC3C[C@@H](C)C[C@@]2(C)OC1C[C@@H]7C (some centres not stated),inactive,
CC(=O)Nc1ccc([As](=O)(O)O)cc1,active: 7.38 µM,
O=C(O)c1ccccc1[As](=O)(O)O,active: 0.329 µM,
Nc1cc(N)c2nonc2c1[N+](=O)[O-],inactive,
CC(C)CC(=O)NC(Sc1ccc(Cl)cc1)C(Cl)(Cl)Cl (configuration not stated),inactive,
Oc1ccccc1CNc1ccccn1,inactive,
O=C(NC(Sc1ccncn1)C(Cl)(Cl)Cl)c1ccccc1 (configuration not stated),active: 3.29 µM,
COc1ccccc1OP(=O)(Nc1ccc(C)cn1)Oc1ccccc1OC,inactive,
Cc1ccc(OP(=O)(Nc2nccs2)Oc2ccc(C)cc2)cc1,inactive,
Clc1ccc(Cl)c(NC2=NCC(CBr)S2)c1 (configuration not stated),inactive,
NC(=O)c1cc([N+](=O)[O-])cc([N+](=O)[O-])c1N,inactive,
Cc1ccc(N/C(=N/P(=O)(N2CCOCC2)N2CCOCC2)N2CCOCC2)cc1,inactive,
CN(C)C(=O)OCCc1n(C)cc[n+]1C,inactive,
CC1CCN(C(=O)Oc2c(Cl)cc(Cl)c3cccnc23)CC1,inactive,

Structure (SMILES),Potency,"activity change, negative = inhibition"
CCN(/C(=N/P(=O)(N1CCOCC1)N1CCOCC1)N1CCOCC1)c1ccc(OC)cc1,inactive,
CC(=O)N1C2C3N(C(C)=O)C1C1N(C(C)=O)C(C(N1C(C)=O)N3C(C)=O)N2C(C)=O,inactive,
O=[N+]([O-])c1cccc2n[nH]nc12,inactive,
Cc1ccc(NP(=O)(Oc2ccccc2)Oc2ccccc2)nc1,inactive,
CCc1nc2c(n1)c1c(non1O)c1c2no[n+]1[O-],active: 4.65 µM,
COc1ccc(C2=NCC(CBr)S2)cc1 (configuration not stated),inactive,
O=[N+]([O-])c1cccc(NC2=NCC(CBr)S2)c1 (configuration not stated),inactive,
CC(C)(C)C(=O)NC(Sc1ccncn1)C(Cl)(Cl)Cl (configuration not stated),inactive,
Cn1c(=O)[nH]c(=O)c2c1nc(Br)n2Cc1ccccc1,active: 13.1 µM,
O=C(Nc1cc([As](=O)(O)O)ccc1O)c1ccccc1,active: 10.4 µM,
O=[N+]([O-])c1ccc(Nc2ccc(Oc3ccc([N+](=O)[O-])cc3[N+](=O)[O-])cc2)c([N+](=O)[O-])c1,inactive,
Cc1cc(SC(NC=O)C(Cl)(Cl)Cl)ncn1 (configuration not stated),inactive,
O=P(Nc1ccccn1)(c1cccc2ccccc12)c1cccc2ccccc12,inactive,
CCOC(=O)Nc1cccc([As](=O)(O)O)c1,active: 3.29 µM,
Cc1cc(SC(NC(=O)c2ccccc2)C(Cl)(Cl)Cl)nc(C(C)C)n1 (configuration not stated),inactive,
CCOC(=O)Nc1ccc([As](=O)(O)O)c(O)c1,active: 1.31 µM,
CCOC(=O)c1ccc(NC(=O)C(C)(CCl)SC)cc1 (configuration not stated),inactive,
O=C(OC1CN2CCC1CC2)c1cccc([N+](=O)[O-])c1 (configuration not stated),inactive,
O=C(Nc1ccncc1[N+](=O)[O-])c1ccc([N+](=O)[O-])cc1[N+](=O)[O-],inactive,
COP1(=S)c2c(C)nn(CCC#N)c2N=C(c2ccc(F)cc2)N1C (configuration not stated),inactive,
COc1cc(I)ccc1[As](=O)(O)O,active: 4.15 µM,
